# Data taken from patent publication US6177441A, “Treating red blood cell solutions with anti-viral agents” (Cerus Corporation, priority 1998, dated 2001).
# How the values were obtained:
# [1] = test system: cell-associated HIV; test: Inactivation of cell-associated HIV in H9 cells, microtiter plaque assay (Example 8); conditions: for Log Titer: no QM 5.5
# [2] = test system: cell-free HIV; test: Cell-free HIV inactivation in the presence of red blood cells (Example 9); assay type: cell-based
# [3] = test system: cell-associated HIV; test: Cell-associated HIV inactivation in the presence of red blood cells (Example 9); assay type: cell-based, HIVIIIB; conditions: for Log Titer: 0 μg/ml 5.5 (QM), 5.7 (ICR-170)
smiles,measurement,setting,value
COc1ccc2nc3cc(Cl)ccc3c(NC(C)CCCN(CCCl)CCCl)c2c1.Cl.Cl (stereo not shown),Log Reduction,[1]; 3 μg/ml,-2.8
same,Log Titer,[1]; 3 μg/ml,2.7
same,Log Reduction,[1]; 10 μg/ml,> -4.8
same,Log Reduction,[1]; 30 μg/ml,> -5.2
same,Log Reduction,[1]; 100 μg/ml,-3.75
same,Log Titer,[1]; 100 μg/ml,1.75
same,Log Reduction,[1]; 150 μg/ml,> -5.2
same,Log Titer,"[2]; 10 μg/ml, 0 μg/ml 5.7",3.9 pfu/ml
same,Log Reduction,[2]; 40 μg/ml,> 4.3
same,Log Reduction,[2]; 80 μg/ml,> 4.3
same,Log Reduction,[3]; 10 μg/ml,1.1
same,Log Titer,[3]; 10 μg/ml,4.4
same,Log Titer,[3]; 80 μg/ml,2.4
